Test results as given in patent publication US20240000756A1, “METHODS AND COMPOUNDS FOR TREATMENT OF AUTISM SPECTRUM DISORDER” (Crestone, Inc., priority 2020, published 2024).

Test system: normal gut flora
Assay: Phase 1b study, effect on fecal microbiome
Type: in vivo, human

O=c1cc(NCCCN[C@@H]2CCOc3c(Br)cc(Br)cc32)[nH]c2ccsc12 [CRS3123]
effect on proportion of Bacteroidetes (400 mg BID): an increase in the proportion of Bacteroidetes
effect on proportion of Bacteroidetes (600 mg BID): an increase in the proportion of Bacteroidetes
